Assay results reported in patent US20170266266A1, “Functions of 55 Newfound Proteins and Their Medicinal Application in the Treatment and Prevention of Disease” (priority 2012, published 2017).

Tested on: 3T3-L1 adipocytes
Experiment: Glucose uptake assay
Type: cell-based
Settings: for % Activation, Average: average of two experiments; for % Activation, First: first experiment; for % Activation, Second: second experiment
Procedure: Study Protocol • 1. 3T3-L1 fibroblasts were cultured in DMEM containing 25 mM glucose and 10% bovine calf serum at 37 °C with 5% CO2. • 2. 3T3-L1 fibroblasts were differentiated into adipocytes 2 days post confluent with the same DMEM medium containing 1 ug/ml insulin (Sigma-Aldrich), 1 uM dexamethasone (Sigma-Aldrich), and 0.5 mM isobutyl-1-methylxanthine (Sigma-Aldrich). • 3. Media were replaced with DMEM containing 10% FBS and 1 ug/ml insulin and culture 2 days. • 4. Seed 1×10^5 3T3-L1 adipocytes to 96 wells cell culture plate (DMEM, 10% FBS, 1% PS, 1 ug/ml insulin) • 5. Before experiments, adipocytes were incubated in serum free medium for starvation overnight. • 6. Dilute each sample 100 folds (2 ul primal solution to 198 ul buffer) in corresponding buffer. Add 2 ul of sample primal solution, 100 folds diluted solution and buffer to 198 ul KRPH buffer. • 7. 3T3-L1 adipocytes were washed with KRPH buffer (5 mM Na2HPO4, 20 mM HEPES, pH 7.4, 1 mM MgSO4.1 mM CaCl2, 136 mM NaCl, […], and 1% BSA) three times, Add 90 ul/well KRPH containing human insulin and samples to assay plate, incubate for 30 min at 37[…] and 5% CO2. • 8. Add 10 ul KRPH containing 0.25 uCi 1-[3H]-2-deoxyglucose/well and 50 umol/l 2-deoxyglucose and Incubate 10 min in 95% air/5% CO2 at 37[…] • 9. The transport was stopped by rinsing the cells with cold PBS containing 10 mM glucose for three times. • 10. The adipocytes were lysed in 50 ul 10% KOH for 5 min • 11. Then the aliquots were subjected to scintillation counting using TriCap.

B1: AFOD RAAS 108: from A1AT from fraction IV (protein, UniProt P01009 25-418, looked up)
Alpha-1-antitrypsin: EDPQGDAAQKTDTSHHDQDHPTFNKITPNLAEFAFSLYRQLAHQSNSTNIFFSPVSIATAFAMLSLGTKADTHDEILEGLNFNLTEIPEAQIHEGFQELLRTLNQPDSQLQLTTGNGLFLSEGLKLVDKFLEDVKKLYHSEAFTVNFGDTEEAKKQINDYVEKGTQGKIVDLVKELDRDTVFALVNYIFFKGKWERPFEVKDTEEEDFHVDQVTTVKVPMMKRLGMFNIQHCKKLSSWVLLMKYLGNATAIFFLPDEGKLQHLENELTHDIITKFLENEDRRSASLHLPKLSITGTYDLKSVLGQLGITKVFSNGADLSGVTEEAPLKLSKAVHKAVLTIDEKGTEAAGAMFLEAIPMSIPPEVKFNKPFVFLMIEQNTKSPLFMGKVVNPTQK
- % Activation, Average (sample at 0.0005%): 7.8%
- % Activation, First (sample at 0.0005%): 4.15%
- % Activation, Second (sample at 0.0005%): 11.49%
- % Activation, Average (sample at 0.05%): 30.3%
- % Activation, First (sample at 0.05%): 23.16%
- % Activation, Second (sample at 0.05%): 37.37%
